According to US12012411B2, “Viral replication inhibitors” (Katholieke Universiteit Leuven, priority 2011, dated 2024):

Legend:
DENV-2 NGC [1] = test: Antiviral activity against DENV-2 NGC in A549 cells (viral RNA load by RT-qPCR); assay type: cell-based, Dengue virus; conditions: DENV-2 in A549 cells (Table 6); ratio CC50 / EC50
DENV-2 NGC [2] = test: Antiviral activity against DENV-2 NGC in Vero-B cells (viral RNA load by RT-qPCR); assay type: cell-based, Dengue virus; conditions: DENV-2 in Vero-B cells (Table 3); ratio CC50 / EC50

COc1cc(NC(C(=O)c2c[nH]c3ccccc23)c2ccccc2)cc(OCCO)c1 (stereo not shown) [CPD-255]
SI (DENV-2 NGC [1]): 2030
SI (DENV-2 NGC [2]): 1535

COc1cc(NC(C(=O)c2c[nH]c3ccccc23)c2cc3ccccn3n2)cc(OCCO)c1 (stereo not shown) [CPD-336]
SI (DENV-2 NGC [1]): >22523
SI (DENV-2 NGC [2]): >8498

COc1cc(CO)cc(NC(C(=O)c2c[nH]c3ccccc23)c2ccc(C)nc2)c1 (stereo not shown) [CPD-320]
SI (DENV-2 NGC [1]): >22522
SI (DENV-2 NGC [2]): >1781

COc1cc(NC(C(=O)c2cn(C)c3ccccc23)c2cccnc2)cc(OC)c1 (stereo not shown) [CPD-360]
SI (DENV-2 NGC [1]): >4630
SI (DENV-2 NGC [2]): >3541

COc1cc(NC(C(=O)c2c[nH]c3ccccc23)c2cccnc2)cc(OC)c1 (stereo not shown) [CPD-236]
SI (DENV-2 NGC [1]): 3428
SI (DENV-2 NGC [2]): 4562

COc1cncc(NC(C(=O)c2c[nH]c3cc(F)ccc23)c2ccc(OC)nc2)c1 (stereo not shown) [CPD-242]
SI (DENV-2 NGC [1]): 4642
SI (DENV-2 NGC [2]): 1340

COc1cc(NC(C(=O)c2c[nH]c3ccccc23)c2cnc(OC)cn2)cc(OC)c1 (stereo not shown) [CPD-294]
SI (DENV-2 NGC [1]): 4048
SI (DENV-2 NGC [2]): 2598

COc1cc(NC(C(=O)c2nn(C)c3ccccc23)c2ccc(F)cc2)cc(OC)c1 (stereo not shown) [CPD-340]
SI (DENV-2 NGC [1]): >4425
SI (DENV-2 NGC [2]): >6223

COc1cc(NC(C(=O)c2cn(C)c3ccccc23)c2ccccc2)cc(OC)c1 (stereo not shown) [CPD-338]
SI (DENV-2 NGC [1]): >4808
SI (DENV-2 NGC [2]): >16618

COc1cc(NC(C(=O)c2c[nH]c3ccccc23)c2ccc(F)cc2)cc(OCCO)c1 (stereo not shown) [CPD-350]
SI (DENV-2 NGC [1]): 7758
SI (DENV-2 NGC [2]): 3462

COc1cc(NC(C(=O)c2c[nH]c3ccc(F)cc23)c2ccccc2)cc(OC)c1 (stereo not shown) [CPD-131]
SI (DENV-2 NGC [1]): 1447
SI (DENV-2 NGC [2]): 1779

COc1cccc(NC(C(=O)c2c[nH]c3ccccc23)c2ccc(CN(C)C)cc2)c1 (stereo not shown) [CPD-124]
SI (DENV-2 NGC [2]): 5

COc1cccc(NC(C(=O)c2c[nH]c3c(F)cccc23)c2ccccc2)c1 (stereo not shown) [CPD-205]
SI (DENV-2 NGC [2]): 244

COc1cccc(NC(C(=O)c2c[nH]c3ccccc23)c2cccnn2)c1 (stereo not shown) [CPD-317]
SI (DENV-2 NGC [2]): 153

COc1cccc(NC(C(=O)c2c[nH]c3cccc(F)c23)c2ccccc2)c1 (stereo not shown) [CPD-230]
SI (DENV-2 NGC [2]): 176

N#Cc1cccc(NC(C(=O)c2c[nH]c3ccccc23)c2ccccc2)c1 (stereo not shown) [CPD-035]
SI (DENV-2 NGC [2]): 7

CCc1cccc2c(C(=O)C(Nc3ccc(NC(=O)CN4CCOCC4)cc3)c3ccccc3)c[nH]c12 (stereo not shown) [CPD-186]
SI (DENV-2 NGC [2]): 9

COc1cccc(NC(C(=O)c2c[nH]c3ccccc23)c2cccc(C)c2)c1 (stereo not shown) [CPD-138]
SI (DENV-2 NGC [2]): 74

O=C(c1c[nH]c2ccccc12)C(NCc1ccccn1)c1ccccc1 (stereo not shown) [CPD-032]
SI (DENV-2 NGC [2]): >2

COc1cccc(NC(C(=O)c2cn(S(=O)(=O)C3CCOC3)c3ccccc23)c2ccccc2)c1 (stereo not shown) [CPD-208]
SI (DENV-2 NGC [2]): >279

COC(=O)c1ccc2[nH]cc(C(=O)C(Nc3cccc(OC)c3)c3ccccc3)c2c1 (stereo not shown) [CPD-142]
SI (DENV-2 NGC [2]): 137

COc1cccc(NC(C(=O)c2noc3ccccc23)c2ccccc2)c1 (stereo not shown) [CPD-330]
SI (DENV-2 NGC [2]): >30

O=C(c1c[nH]c2ccccc12)C(NCc1cccs1)c1ccccc1 (stereo not shown) [CPD-033]
SI (DENV-2 NGC [2]): 8

COc1cccc(NC(C(=O)c2c[nH]c3ccc(OC)cc23)c2ccccc2)c1 (stereo not shown) [CPD-092]
SI (DENV-2 NGC [2]): 184

COc1cncc(NC(C(=O)c2c[nH]c3cc(F)ccc23)c2ccccc2)c1 (stereo not shown) [CPD-157]
SI (DENV-2 NGC [2]): 299

COc1cccc(NC(C(=O)c2c[nH]c3ccccc23)c2ccc(S(C)(=O)=O)cc2)c1 (stereo not shown) [CPD-021]
SI (DENV-2 NGC [2]): >70

COc1cccc(NC(C(=O)c2nn(C)c3cc(F)ccc23)c2ccccc2)c1 (stereo not shown) [CPD-281]
SI (DENV-2 NGC [2]): >612

COc1cccc(NC(C(=O)c2nn(C)c3ccccc23)c2ccccc2)c1 (stereo not shown) [CPD-203]
SI (DENV-2 NGC [2]): >185

O=C(c1c[nH]c2ccccc12)C(Nc1cccc(Cl)c1)c1ccccc1 (stereo not shown) [CPD-006]
SI (DENV-2 NGC [2]): 8

CN(Cc1ccco1)C(C(=O)c1c[nH]c2ccccc12)c1ccccc1 (stereo not shown) [CPD-189]
SI (DENV-2 NGC [2]): >156

COc1cccc(NC(C(=O)c2c[nH]c3ccccc23)c2ccncc2)c1 (stereo not shown) [CPD-020]
SI (DENV-2 NGC [2]): 114

COc1cccc(NC(C(=O)c2c[nH]c3ccc(F)cc23)c2ccccc2)c1 (stereo not shown) [CPD-119]
SI (DENV-2 NGC [2]): 372

COc1cccc(NC(C(=O)c2cn(CCO)c3cc(F)ccc23)c2ccccc2)c1 (stereo not shown) [CPD-245]
SI (DENV-2 NGC [2]): 192

COc1cc(NC(C(=O)c2cn(S(C)(=O)=O)c3ccccc23)c2ccccc2)ccn1 (stereo not shown) [CPD-121]
SI (DENV-2 NGC [2]): 10

CCOc1ncc(NC(C(=O)c2c[nH]c3ccccc23)c2ccccc2)cc1OC (stereo not shown) [CPD-258]
SI (DENV-2 NGC [2]): 49

COc1cncc(NC(C(=O)c2c[nH]c3ccccc23)c2ccccc2)c1 (single isomer, unassigned) [CPD-300]
SI (DENV-2 NGC [2]): 39

COc1cccc(NC(C(=O)c2c[nH]c3ccc(CO)cc23)c2ccccc2)c1 (stereo not shown) [CPD-219]
SI (DENV-2 NGC [2]): 166

CC(C)Oc1cncc(NC(C(=O)c2c[nH]c3ccccc23)c2ccccc2)c1 (stereo not shown) [CPD-247]
SI (DENV-2 NGC [2]): 37

COc1cc(NC(C(=O)c2c[nH]c3ccccc23)c2ccccc2)cc(OCCCO)c1 (stereo not shown) [CPD-361]
SI (DENV-2 NGC [2]): 586

COc1cccc(NC(C(=O)c2cn(CCN3CCOCC3)c3ccccc23)c2ccccc2)c1 (stereo not shown) [CPD-216]
SI (DENV-2 NGC [2]): >127

COc1cccc(NC(C(=O)c2c[nH]c3ccccc23)c2ccc(C)cc2)c1 (stereo not shown) [CPD-139]
SI (DENV-2 NGC [2]): 915
